Measured values from several laboratories, pooled; numbers as filed in NIAID ChemDB.

Common to all: whole-cell or culture tests; organism: Mycobacterium tuberculosis

Percent inhibition refers to the dose given; in toxicity tests it is the harm to the cells. MIC50, MIC90 and the like: level of inhibition, or share of isolates inhibited. Two numbers with a dash give a range or band. Blank or dashed fields: not listed here. "inactive" is the filed call at that dose; no cut-off is given. MIC bound comes from a single tested concentration. Lines come from different laboratories, so protocols vary.

compound	mutations	cells	strain or isolate	setting	method	dose	endpoint	result
Cc1ccc(C(=O)/C=C/c2ccccc2)cc1			H37Rv	14 d	resazurin		MIC	32 µg/mL
CC1CCC2(C(=O)OC3OC(COC4OC(CO)C(OC5OC(C)C(O)C(O)C5O)C(O)C4O)C(O)C(O)C3O)CCC3(C)C(=CCC4C5(C)CC(O)C(O)C(C)(CO)C5C(O)CC43C)C2C1C					fluorescence	200 µM	inhibition	0%
Cc1ccc(C(=O)/C=C/c2ccccc2)c(F)c1			H37Rv	14 d	MTT		MIC	32 µg/mL
C1=C(c2nc(-c3cccnc3)no2)c2ccccc2C12CCN(CC1CCCO1)CC2	Streptomycin-resistant		136570		resazurin		MIC	0.78 µM
COc1ccc(C(=O)/C=C/c2ccccc2Cl)c(F)c1			H37Rv	14 d	MTT		MIC	32 µg/mL
C(=N/Nc1ccccc1)/c1ccnc2ccccc12			H37Rv		BACTEC	6.25 µg/mL	inhibition	0%
CCCCCC(Cn1ccnc1)c1ccccc1Br			H37Rv		resazurin	6.25 µg/mL	inhibition	96%
Cc1ccc(C(=O)Nn2c(C)nc3scc(-c4ccco4)c3c2=O)cc1			CNCTC MY331/88				MIC	41 µM
CCCCCCCCCCCNCCNCc1cccc(F)c1							MIC	50 µM
O=C(/C=C/c1ccccc1Cl)c1ccc(F)cc1			H37Rv	21 d	resazurin		MIC	32 µg/mL
Cc1c(NC(=O)CSc2nnc(-c3ccco3)n2-c2ccc(F)cc2)c(=O)n(-c2ccccc2)n1C			H37Rv		resazurin	6.25 µg/mL	inhibition	inactive
CN(C)C/C=C(\c1ccc(N)cc1)c1ccc(-c2ccc(Br)cc2)cc1			ALI 909				MIC	39 µg/mL
CC1CCC2(C(=O)OC3OC(COC4OC(CO)C(OC5OC(C)C(O)C(O)C5O)C(O)C4O)C(O)C(O)C3O)CCC3(C)C(=CCC4C5(C)CC(O)C(O)C(C)(CO)C5CCC43C)C2C1C					fluorescence	200 µM	inhibition	0%
COc1cc(/C=C/C(=O)c2ccc(Nc3ccnc4cc(Cl)ccc34)cc2)cc(OC)c1OC			H37Rv		BACTEC	12.5 µg/mL	inhibition	51%
CC(C)(C)c1ccc(CN2CCC3(CC2)C(=O)Nc2ccccc23)cc1			H37Rv		turbidity		MIC	3.1 µM
CC(C)=CCC/C(C)=C/CNCCNCC12CC3CC(CC(C3)C1)C2							MIC	25 µM
COc1ccc(/C=C/c2nc3ccc(Br)cc3[nH]2)cc1OC			H37Rv (ATCC 27294)		resazurin		MIC	>7.25 µg/mL
NCCc1ccc2oc3cc(=O)c4ccccc4c-3nc2c1		VERO	H37Rv				MIC	3.13 µg/mL
CC(=O)N/N=C\c1cc(C2C3CC4CC(C3)CC2C4)nc2ccccc12			H37Rv		BACTEC	6.25 µg/mL	inhibition	0%
COc1ccc(/C=N/n2c(C)nc3scc(-c4ccco4)c3c2=O)cc1			CNCTC MY331/88				MIC	14 µM
c1ccc(P(c2ccccc2)c2ccccn2)cc1			H37Rv	7 d	broth dilution / visual reading		MIC99	160 µM
O=C(NNC(=O)c1ccc(Cl)cc1)c1ccc(Cl)cc1			H37Rv		BACTEC	12.5 µg/mL	inhibition	-14%
O=CN/N=C\c1cc(C2CCCCC2)nc2ccccc12			H37Rv		BACTEC	6.25 µg/mL	inhibition	0%
O=C1c2ccccc2C(=O)c2c(Nc3ccccc3)ccc(NCCO)c21			H37Rv		BACTEC	12.5 µg/mL	inhibition	-13%
COc1ccccc1CCNCCN[C@@H]1C[C@@H]2C[C@H]([C@H]1C)C2(C)C							MIC	25 µM
CN(C)C/C=C(\c1ccc(Cl)cc1)c1ccc(-c2ccc(Br)cc2)cc1			H37Rv				MIC	5 µg/mL
CO[C@H]1/C=C/O[C@@]2(C)Oc3c(C)c(O)c4c(=O)c(c5oc6cc(N7CCN(CC(C)C)CC7)cc(=O)c6nc5c4c3=C2O)NC(=O)/C(C)=C\C=C\[C@H](C)[C@H](O)[C@@H](C)[C@@H](O)[C@@H](C)[C@H](OC(C)=O)[C@@H]1C			Kurono				MIC	0.004 µg/mL
O=C1CC[C@@H]2CN(Cc3ccccc3)CC[C@@]23OC[C@H](C(F)(F)F)N13			H37Rv		resazurin		MIC98	>10 µM
CCCCCCCCCCCNCCNCc1ccc(C)cc1							MIC	50 µM
C1=C(c2nc(-c3ccccn3)no2)c2ccccc2C12CCN(CC1CCCO1)CC2			H37Rv		resazurin		MIC	12.5 µM
OCC1OC(Oc2c(O)cc(O)cc2C=Cc2ccc(O)cc2)C(O)C(O)C1O					fluorescence	200 µM	inhibition	0%
COC1=C(C)C(=O)c2cc(=O)n(C)cc2C1=O			Streptomycin-resistant				MIC	1.56 µg/mL
Fc1cccc(N/N=C\c2cc(C3CCCCC3)nc3ccccc23)c1			H37Rv		BACTEC	6.25 µg/mL	inhibition	99%
O=C(O)Cc1cccc2c(=O)c3ccccc3oc12			H37Rv		BACTEC	12.5 µg/mL	inhibition	0%
CC(C)[C@H]1CCO[C@]23CCN(Cc4ccc(C(F)(F)F)cc4)C[C@H]2CCC(=O)N13			H37Rv		resazurin		MIC98	>10 µM
CN(C)C/C=C(\c1ccc(O)cc1)c1ccc(-c2ccccc2)cc1			ALI 3236				MIC	49 µg/mL
N=c1c2ccccc2sc2nc3ccccc3n12			H37Rv				MIC bound	>6.25 µg/mL
COc1cc(C2Oc3cc(C4Oc5cc(O)cc(O)c5C(=O)C4O)ccc3OC2CO)ccc1O					fluorescence	200 µM	inhibition	0%
CN(C)CC=C(c1ccc(Br)cc1)c1ccc(-c2ccc(Br)cc2)cc1			ALI 3236				MIC	34 µg/mL
O=[N+]([O-])c1ccc2nc(/C=C/c3cccc(O)c3)[nH]c2c1			H37Rv (ATCC 27294)		resazurin		MIC	>7.25 µg/mL
CC(=O)N/N=C\c1cc(C2CCCCC2)nc2ccccc12			H37Rv		BACTEC	6.25 µg/mL	inhibition	0%
O=C(/C=C/c1ccc(F)cc1Cl)c1ccccc1			H37Rv	14 d	MTT		MIC	32 µg/mL
O=C1/C(=C\c2ccco2)N=C2Sc3c(nc[nH]c3=O)N12					BACTEC	0.5 µM	inhibition	0%
Br.O=C1C=CCC2C3CCCN4CCCC(CN12)C34					fluorescence	200 µM	inhibition	11.85%
CC(C)[C@H]1CO[C@]23CC[C@H](Nc4ccc(C(F)(F)F)cc4)C[C@H]2CCC(=O)N13			H37Rv		resazurin		MIC98	<1 µM
CCN1CC(=O)N(C)C1=S			H37Rv		BACTEC	12.5 µg/mL	inhibition	100%
CO/N=C(/C(=O)N[C@@H]1C(=O)N2C(C(=O)[O-])=C(C[N+]3(C)CCCC3)CS[C@H]12)c1csc(N)n1			13 strains			32 µg/mL	inhibition	54%
CC(C)[C@H]1CO[C@]23CCN(C(=O)CCc4ccc(C(F)(F)F)cc4)C[C@H]2CCC(=O)N13			H37Rv		resazurin		MIC98	1–10 µM
c1cc(NCCN[C@H]2C[C@@H]3CC[C@H]2C3)c2cccnc2c1							MIC	>50 µM
Cc1nc2scc(-c3ccco3)c2c(=O)n1NC(=O)C1CC1			CNCTC MY331/88				MIC	88 µM
COc1ccc(C(=O)/C=C/c2ccc(F)cc2Cl)cc1			H37Rv	21 d	resazurin		MIC	64 µg/mL
COc1ccc(-c2oc3c(CC=C(C)C)c(OC4OC(CO)C(O)C(O)C4O)cc(O)c3c(=O)c2OC2OC(C)C(O)C(O)C2O)cc1					fluorescence	200 µM	inhibition	74.34%
CCOCCCNCCNC[C@]1(C)CCC[C@]2(C)c3ccc(C(C)C)cc3CC[C@@H]12							MIC	25 µM
Cc1ccc(-n2c(SCC(=O)Nc3c(C)n(C)n(-c4ccccc4)c3=O)nnc2-c2ccco2)cc1			H37Rv		resazurin	6.25 µg/mL	inhibition	inactive
O=C1NC(CCO)C(=O)NC1CCO			H37Rv		BACTEC	12.5 µg/mL	inhibition	12%
CC(=O)Nn1c(C)nc2scc(-c3ccco3)c2c1=O			CNCTC MY331/88				MIC	200 µM
COc1nc2ccc(Br)cc2cc1[C@@H](c1ccccc1)[C@@](O)(CCN(C)C)c1cccc2ccccc12			clinical isolate MAL020151		resazurin		MIC90	0.03125 µg/mL
Cc1ccc(-n2c(SC(C)C(=O)Nc3c(C)n(C)n(-c4ccccc4)c3=O)nnc2-c2ccco2)cc1			H37Rv		resazurin	6.25 µg/mL	inhibition	inactive
Cc1nc2scc(-c3ccco3)c2c(=O)n1NC(=O)c1ccco1			CNCTC MY331/88				MIC	41 µM
COc1ccc(CN2C(=O)C3(CCN(CC4CC4)CC3)c3ccccc32)cc1			H37Rv		resazurin		MIC	50 µM
COc1ccc2c(c1)n([O-])c1ccccc1[n+]2=O			H37Rv		BACTEC		MIC	3.13 µg/mL
CCCCC(CC)CN1CN(CC(CC)CCCC)CC(C)(NCCNCCCc2ccccc2)C1							MIC	25 µM
NNC(=O)C1(N)CCCC1			H37Rv		BACTEC		MIC	≥12.5 µg/mL
Oc1cccc(/C=C/c2nc3ccc(Br)cc3[nH]2)c1			H37Rv (ATCC 27294)		resazurin		MIC	>7.25 µg/mL
Fc1ccc(N/N=C/c2ccc3ccccc3n2)cc1			H37Rv		BACTEC	6.25 µg/mL	inhibition	94%
COC1C(=O)CCC2(CO2)C1(O)C1(C)OC1CC=C(C)C			H37Rv		BACTEC		MIC bound	>12.8 µg/mL
O=C(/C=C/c1ccc(F)cc1Cl)c1ccc(F)cc1			H37Rv	21 d	MTT		MIC	32 µg/mL
CNC(=O)c1nc(C)c(C)[nH]c1=O			H37Rv		BACTEC		MIC bound	>12.5 µg/mL
COc1ccc(-c2noc(C3=CC4(CCN(CC5CCCO5)CC4)c4ccccc43)n2)cc1	Spiroindene-resistant		TB333		turbidity		MIC	3 µM
NC(=O)c1ncn([C@@H]2O[C@H](CO)[C@@H](O)[C@H]2O)n1			H37Rv		BACTEC	12.5 µg/mL	inhibition	4%
C(=N/Nc1ccccc1)/c1cc(C2CCCCC2)nc2ccccc12			H37Rv		BACTEC	6.25 µg/mL	inhibition	0%
O=C(C=Cc1ccc(O)cc1)c1ccc(O)cc1O					fluorescence	200 µM	inhibition	83.6%
[N-]=[N+]=CC(=O)OC[C@@H]1NC(=O)[C@@H](COC(=O)C=[N+]=[N-])NC1=O			H37Rv		BACTEC		MIC bound	>12.5 µg/mL
Cc1nc2scc(-c3ccco3)c2c(=O)n1/N=C/c1ccc(Cl)cc1			CNCTC MY331/88				MIC	10 µM
CCN(CC)c1ccc2nc3c4ccccc4c(=NC(=O)c4ccccc4-c4c5ccc(N(CC)CC)cc5[o+]c5cc(N(CC)CC)ccc45)cc-3oc2c1.[Cl-]			KM-R				MIC	0.8 µg/mL
Cc1c(NC(=O)CSc2nnc(-c3ccco3)n2-c2ccc(Br)cc2)c(=O)n(-c2ccccc2)n1C			H37Rv		resazurin	6.25 µg/mL	inhibition	3%
CCOC(=O)c1c(-c2ccco2)csc1NC(C)=O			CNCTC MY331/88				MIC	>1000 µM
Cc1c(NC(=O)CSc2nnc(-c3ccco3)n2-c2ccc(Cl)cc2)c(=O)n(-c2ccccc2)n1C			H37Rv		resazurin	6.25 µg/mL	inhibition	inactive
CC[C@@H](CO)NCCN[C@@H](CC)CO			H37Rv		BACTEC		MIC	20 µg/mL
CCS(=O)(=O)O.OC1CC2CCC(C1)N2CCCN1c2ccccc2Sc2ccc(Cl)cc21		VERO	H37Rv		BACTEC		MIC	12.5 µg/mL
CCCCn1c(SCC(=O)Nc2c(C)n(C)n(-c3ccccc3)c2=O)nnc1-c1ccco1			H37Rv		resazurin		MIC	>6.25 µg/mL
COc1ccc(C(=O)/C=C/c2ccc(F)cc2)c(F)c1			H37Rv		MTT		MIC	32 µg/mL
CO[C@H]1/C=C/O[C@@]2(C)Oc3c(C)c(O)c4c(O)c(c5c(c4c3C2=O)NC2(CCN(CC(C)C)CC2)N=5)=NC(=O)/C(C)=C\C=C\[C@H](C)[C@H](O)[C@@H](C)[C@@H](O)[C@@H](C)[C@H](OC(C)=O)[C@@H]1C			1 isolates (Asp516Val)				MIC	0.5 µg/mL
Cn1c(COC(=O)Nc2ccc(N(CCCl)CCCl)cc2)cnc1[N+](=O)[O-]			H37Rv		resazurin	6.25 µg/mL	inhibition	7%
Brc1ccc2nc(/C=C/c3ccc4c(c3)OCO4)[nH]c2c1			H37Rv (ATCC 27294)		resazurin		MIC	>7.25 µg/mL
Cc1ccc(/C(=C\CN(C)C)c2ccc(-c3ccc(Br)cc3)cc2)cc1			H37Ra				MIC	79 µg/mL
O=C1CN=C(c2ccccc2)O1			H37Rv		BACTEC	12.5 µg/mL	inhibition	18%
COc1ccc(CNCCNCCc2ccc(F)cc2)cc1OC							MIC	50 µM

For reference, 9 entries again:

compound	mutations	cells	strain or isolate	setting	method	dose	endpoint	result
Cc1nc2scc(-c3ccco3)c2c(=O)n1NC(=O)C1CC1			CNCTC MY331/88				MIC	88 µM
O=C1c2ccccc2C(=O)c2c(Nc3ccccc3)ccc(NCCO)c21			H37Rv		BACTEC	12.5 µg/mL	inhibition	-13%
CC(=O)N/N=C\c1cc(C2C3CC4CC(C3)CC2C4)nc2ccccc12			H37Rv		BACTEC	6.25 µg/mL	inhibition	0%
COC1=C(C)C(=O)c2cc(=O)n(C)cc2C1=O			Streptomycin-resistant				MIC	1.56 µg/mL
O=C1/C(=C\c2ccco2)N=C2Sc3c(nc[nH]c3=O)N12					BACTEC	0.5 µM	inhibition	0%
CCCCCCCCCCCNCCNCc1ccc(C)cc1							MIC	50 µM
CN(C)C/C=C(\c1ccc(N)cc1)c1ccc(-c2ccc(Br)cc2)cc1			ALI 909				MIC	39 µg/mL
CC1CCC2(C(=O)OC3OC(COC4OC(CO)C(OC5OC(C)C(O)C(O)C5O)C(O)C4O)C(O)C(O)C3O)CCC3(C)C(=CCC4C5(C)CC(O)C(O)C(C)(CO)C5C(O)CC43C)C2C1C					fluorescence	200 µM	inhibition	0%
O=C(NNC(=O)c1ccc(Cl)cc1)c1ccc(Cl)cc1			H37Rv		BACTEC	12.5 µg/mL	inhibition	-14%